Among the data in US8497361B2, “Topoisomerase binding probe and method of use” (priority 2010, dated 2013) are Ki values, retold here.

Amino acid sequences for entries named in this document (tags omitted). Residues count along the entry.
UniProt Q5NHE7, 1-805: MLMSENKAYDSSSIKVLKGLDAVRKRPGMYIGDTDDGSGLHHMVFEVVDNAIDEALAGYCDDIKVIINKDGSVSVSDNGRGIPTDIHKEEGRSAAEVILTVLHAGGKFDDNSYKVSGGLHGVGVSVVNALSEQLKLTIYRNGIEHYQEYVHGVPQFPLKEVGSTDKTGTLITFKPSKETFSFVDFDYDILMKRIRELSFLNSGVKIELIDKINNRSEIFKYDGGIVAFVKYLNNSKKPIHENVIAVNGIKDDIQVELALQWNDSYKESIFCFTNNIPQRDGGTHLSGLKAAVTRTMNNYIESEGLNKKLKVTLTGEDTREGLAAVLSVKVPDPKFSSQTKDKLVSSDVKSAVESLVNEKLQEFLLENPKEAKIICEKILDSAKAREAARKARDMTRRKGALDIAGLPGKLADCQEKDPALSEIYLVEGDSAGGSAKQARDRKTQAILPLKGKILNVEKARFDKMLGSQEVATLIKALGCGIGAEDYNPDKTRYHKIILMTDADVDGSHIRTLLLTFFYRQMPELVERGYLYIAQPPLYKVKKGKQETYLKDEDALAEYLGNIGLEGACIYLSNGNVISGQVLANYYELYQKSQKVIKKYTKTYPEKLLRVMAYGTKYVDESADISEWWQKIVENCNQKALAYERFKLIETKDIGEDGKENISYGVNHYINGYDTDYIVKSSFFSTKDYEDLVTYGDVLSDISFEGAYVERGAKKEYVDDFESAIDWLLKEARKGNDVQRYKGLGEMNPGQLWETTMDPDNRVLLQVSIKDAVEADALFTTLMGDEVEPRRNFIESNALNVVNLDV

By Ki is commonly meant the equilibrium dissociation constant of an inhibitor or competing ligand from its target. Lower therefore signals higher affinity.

This test concerns the target F. tularensis GyrB (Francisella tularensis subsp. tularensis, UniProt Q5NHE7). Nature of the test: biochemical. Format: binding.

Turning to `CO[C@@H]1[C@@H](OC(N)=O)[C@@H](O)[C@H](Oc2ccc3c(O)c(NC(=O)c4ccc(O)c(CC=C(C)C)c4)c(=O)oc3c2C)OC1(C)C` [novobiocin], the Ki was 11 nM.
